Test results published in article PMC9528872 (Nature Communications, 2022).

Molecular target: SARS-CoV-2 receptor binding domain (RBD), biotinylated (SARS-CoV-2, Wuhan-type, UniProt P0DTC2, biotin (BirA, on the Avi tag))
Experiment: BLI
Conditions: both partners purified

B1: Ab 12 Fab (Fab, V domains shown)
VH: EVQLVESGPGVVSPSATLFLTCSVSGGSIRTHSWNWIRQPPGKPLEWIGFIHHSGATNKNPSLKSRVTISSDTSKNEFSLTLTSVTAADTAVYYCARGPGILSYWSRGTLVTVSS
VL: LPVLTQPPSASGTPGQRVTISCSGSSSNIGSNTVNWYQQLPGTAPKLLIYSNNQRPSGVPDRFSGSKSGTSASLAISGLQSEDEADYYCAAWDDSLNVHYVFGSGTKVTVL
Kd: 8.52 nM | koff: 0.00289 s⁻¹ | kon: 339000 M⁻¹ s⁻¹
